Target: BiPD416, murine BiP with L416 to D substitution (pBC-BiPD416 in E. coli JM109; pEFIRES-P-BiPD416 in Vero cells) (murine) (UniProt P20029)
Test: cell-based or functional assay

Subtilase cytotoxin (SubAB) holotoxin (from UniProt Q6EZC3 24-141)
cytotoxicity endpoint titre on Vero cells transfected with the BiPD416 construct (CD50/µg toxin): < 50
